A mixed list of measured activities; the numbers were collected in NIAID ChemDB.

Shared fields: host cell toxicity; read-out: CC50

Two numbers with a dash give a range or band.

structure | cells | method | result
CCCc1cc(=O)oc2c3c(c4c(c12)OC(C)(C)CC4)O[C@@H](C)[C@H](C)[C@@H]3O | MM | - | 10–20 µM
CCOC(=O)c1c(CS(=O)c2ccccc2)n(C)c2cc(-c3cccnc3)c(O)c(CN(C)C)c12 | Huh7.3 | ATP | 80.5 µM
CCCNC(=O)Oc1ccc(Cl)cc1C(=O)Nc1ccc(C(=O)c2ccccc2)cc1 | Mono Mac 6 | MTT | 18.7 µM
Nc1ncnc2c1ncn2C1CO[C@H](CO)[C@H]1O | NC-37 | - | 43.44 µg/mL
O=C(NN1C(=O)c2c(Cl)c(Cl)c(Cl)c(Cl)c2C1=O)c1ccc(-n2cccc2)cc1 | Vero cells | MTT | 259 µM
CC/C=C\C/C=C\C/C=C\C/C=C\C/C=C\CCCC(=O)O[C@@H]1[C@@H](C)[C@@]2(O)[C@@H](C=C(CO)C[C@]3(O)C(=O)C(C)=C[C@@H]23)[C@@H]2C(C)(C)[C@]12OC(C)=O | C8166 | MTT | 26.4 µM
Nc1ncnc2c1ncn2/C=C1/CC1(CO)CO | MEF | - | >380 µM
CCOC(=O)/C=C/[C@H](C[C@@H]1CCNC1=O)NC(=O)Nc1cc(OC)cc(OC)c1 | H1-HELA | - | >10 µM
Cc1cc(COc2ccc(-c3cccc(C(=O)O)c3)cc2)cnc1CS(=O)c1nc2ccccc2[nH]1 | HEK293T | MTT | 95 µM
CC(C)C1(O)C(N)=Nc2ccc(Cl)cc21 | Erythrocyte | - | >178 µM
CCOC(=O)c1c(CSc2ccccc2)n(C)c2cc(-c3cccnc3)c3c(c12)CN(C)CO3 | MDBK | ATP | 52.2 µM
Cc1ccc(C(=O)Nc2ccc(S(=O)(=O)O)c3cc(S(=O)(=O)O)cc(S(=O)(=O)O)c23)cc1NC(=O)c1cccc(NC(=O)Nc2cccc(C(=O)Nc3cc(C(=O)Nc4ccc(S(=O)(=O)O)c5cc(S(=O)(=O)O)cc(S(=O)(=O)O)c45)ccc3C)c2)c1 | ATH8 | - | >50 µg/mL
CC1=C[C@H]2[C@@]3(O)[C@H](C)[C@@H](O)[C@]4(OC(=O)CCCCCCCCN5CCN(C(=O)CC6(C)C(O)CCC7(C)C8CCC(=O)C8(C)CCC67)CC5)[C@H]([C@@H]3C=C(CO)C[C@]2(O)C1=O)C4(C)C | C8166 | MTT | 18.9 µM
O=C(NCCCCl)Oc1ccc(Br)cc1C(=O)Nc1ccc(C(=O)c2ccccc2)cc1 | Mono Mac 6 | MTT | 12.6 µM
CCOC(=O)/C=C/[C@H](C[C@@H]1CCNC1=O)NC(=O)Nc1cccc2ccccc12 | H1-HELA | - | >10 µM
Cc1nc(Cc2ccccc2)c2[nH]c(=S)[nH]c(=O)n12 | WI-38 | - | 100 µg/mL
CCN1O[C@@]2(CC[C@H](C)N3C[C@H]2n2cc(C(=O)NCc4c(F)cc(F)cc4F)c(=O)c(O)c2C3=O)CC1=O | MT-4 | luminescence | 50 µM
COc1cnc(OC)c(C2(O)C(N)=Nc3ccc(Cl)cc32)c1 | Kidney epithelial cells | - | >195 µM
Cc1cc(OCCCOc2ccc(-c3cccc(C(=O)O)c3)cc2)cnc1CS(=O)c1nc2ccccc2[nH]1 | HEK293T | MTT | >100 µM
C[C@H]1CC[C@]2(CC(=O)N(Cc3ccc4ncsc4c3)O2)[C@H]2CN1C(=O)c1c(O)c(=O)c(C(=O)NCc3c(F)cc(F)cc3F)cn12 | MT-4 | luminescence | 50 µM
C/C(=N\NC(=O)c1ccc(Cl)cc1)c1cccc(/C(C)=N/NC(=O)c2ccc(Cl)cc2)n1 | MCF-7 | MTT | >100 µM
O=C(Oc1ccc(Br)cc1C(=O)Nc1ccc(Cl)c(Cl)c1)c1cnc(Cl)cn1 | Mono Mac 6 | MTT | 5.7 µM
CCCN(Cc1ccc(OCC(=O)OCC)cc1)C(=O)c1ccc(-c2ccc3c(c2)OCO3)cc1 | RAJI | - | >20 µM
CC(=O)Nc1nc2c(CC(O)CO)nc(C)n2c(=O)[nH]1 | PRK | - | 400 µg/mL
Nc1nc2c(ncn2/C=C2/CC2(CO)CO)c(=O)[nH]1 | MEF | - | >404 µM
O=C(NCCCCl)Oc1ccc(Cl)cc1C(=O)Nc1ccc(Cl)c(Cl)c1 | Mono Mac 6 | MTT | 2.5 µM
CCn1c(-c2cccs2)c(C)c(=O)c2cc(C(C)C)ccc21 | HELA-OHIO | MTT | >10 µg/mL
CS[C@@]12CC3C(=O)CC[C@H](O)[C@H]3N1C(=O)[C@@]13C[C@@H]4[C@@H]([C@@H](O)C=C[C@@H]4S1)N3C2=O | 293T | luminescence | >100 µM
NC1=Nc2ccc(Cl)cc2C1(O)c1cccc2ccccc12 | Erythrocyte | - | >129 µM
CN(C)CC1CC12C1CC3CC(C1)CC2C3 | HEF | - | 95 µg/mL
CCn1c2c(c(=O)c3cc(C(C)C)ccc31)Cc1c(C)csc1-2 | HELA-OHIO | MTT | >5 µg/mL
N=C(N)c1ccc(-c2cc(-c3ccc(C(=N)N)nc3)on2)cc1 | L6 rat myoblasts | resazurin | >180 µM
COc1ccc(-c2c(C)c(=O)c3cc(C(C)C)ccc3n2C)cc1 | HELA-OHIO | MTT | 5.8 µg/mL
Cc1cc(OCCCOc2ccc(-c3cccc(C#N)c3)cc2)cnc1CS(=O)c1nc2ccccc2[nH]1 | HEK293T | MTT | >100 µM
CC1=C[C@H]2[C@@]3(O)[C@H](C)[C@@H](OC(=O)CCCCCCCCBr)[C@]4(OC(=O)CCCCCCCCBr)[C@H]([C@@H]3C=C(CO)C[C@]2(O)C1=O)C4(C)C | C8166 | MTT | 74 µM
CC(C)N(Cc1cccc(OCCCCCC(=O)OC(=O)O)c1)C(=O)c1ccc(-c2cccc(C(F)(F)F)c2)cc1 | RAJI | - | >20 µM
O=C(NCCCl)Oc1ccc(Br)cc1C(=O)Nc1ccc(C(=O)c2ccccc2)cc1 | Mono Mac 6 | MTT | 24.9 µM
CCOC(=O)/C=C/[C@H](C[C@@H]1CCNC1=O)NC(=O)C1=Cc2cc(Br)ccc2OC1 | H1-HELA | - | 65 µM
CC(=O)O[C@@]12[C@H](OC(=O)CCCCCCCBr)[C@@H](C)[C@@]3(O)[C@@H](C=C(CO)C[C@]4(O)C(=O)C(C)=C[C@@H]34)[C@@H]1C2(C)C | C8166 | MTT | 80.6 µM
CCOC(=O)/C=C/[C@H](C[C@@H]1CCNC1=O)NC(=O)C1=Cc2cc(Cl)ccc2OC1 | H1-HELA | - | >100 µM
CCOC(=O)c1c(CSc2ccccc2)n(C)c2cc(C#N)c(O)c(CN(N(C)C)N(C)C)c12 | Huh7.3 | ATP | 271.4 µM
O=C(CN(c1cc(C(F)(F)F)ccc1Cl)S(=O)(=O)c1ccccc1)NCc1ccncc1 | HepDE19 | absorbance | >50 µM
Nc1nc2c(ncn2C2CO[C@H](CO)[C@H]2CO)c(=O)[nH]1 | NC-37 | - | 58.67 µg/mL
O=C(NN1C(=O)c2c(F)c(F)c(F)c(F)c2C1=O)c1ccc(-n2cccc2)cc1 | Vero cells | MTT | 265.4 µM
COCCCOc1cnc(CS(=O)c2nc3ccccc3[nH]2)c(C)c1 | HEK293T | MTT | 150 µM
CCOC(=O)/C=C/[C@H](CCC(N)=O)NC(=O)c1cc2ccccc2s1 | H1-HELA | - | >100 µM
C[C@H]1CC[C@]2(CC(C#N)=NO2)[C@H]2CN1C(=O)c1c(O)c(=O)c(C(=O)NCc3ccc(F)cc3F)cn12 | MT-4 | luminescence | 50 µM
Cc1ccc(C)n1-c1ccc(C(=O)NN2C(=O)c3c(Br)c(Br)c(Br)c(Br)c3C2=O)cc1 | Lung adenocarcinoma cells | MTT | 251 µM
COC(=O)c1cccc(-c2ccc(COc3cnc(CS(=O)c4nc5ccccc5[nH]4)c(C)c3)cc2)c1 | HEK293T | MTT | 10 µM
C1CN(CC2CC2)C2(C1)C1CC3CC(C1)CC2C3 | HEF | - | >200 µg/mL
CCOC(=O)CCCCCOc1cccc(CN(C(=O)c2ccc(-c3cccc(-c4nnc(C)o4)c3)cc2)C(C)C)c1 | HepG2 | - | >20 µM
CCOC(=O)c1c(Cc2ccc(O)cc2)n(C)c2cc(Br)c3c(c12)CN(C)CO3 | MDBK | ATP | 71.1 µM
CC(C)N(Cc1ccc(OCC(=O)O)cc1)C(=O)c1ccc(-c2ccc3c(c2)OCO3)cc1 | RAJI | - | >20 µM
C[C@H](Cc1ccc(OCCCN2CCOCC2)c(OCCCN2CCOCC2)c1)[C@@H](C)Cc1ccc(OCCCN2CCOCC2)c(OCCCN2CCOCC2)c1 | COS | - | 1.79 µM
Fc1ccc(-c2csc(-n3cccc3)n2)cc1 | Lung adenocarcinoma cells | MTT | 263 µM
O=C(Nc1ccc(Cl)c(Cl)c1)c1cc(Cl)ccc1O | Mono Mac 6 | MTT | 3.6 µM
Nc1nc(N)c2ncn(C3CO[C@H](CO)[C@H]3CO)c2n1 | NC-37 | - | 79.7 µg/mL
CCOC(=O)CCCCCOc1cccc(CN(C(=O)c2ccc(-c3cnc(OC)nc3OC)cc2)C(C)C)c1 | HepG2 | - | >20 µM
COc1ccccc1N1CCN(c2c(F)cc3c(=O)c(C(=O)O)cn(C)c3c2CN(C)C)CC1 | OM-10.1 | - | 18.3 µM
C=CCCCC(=O)NCC(c1ccc2c(c1)OCO2)C1OCCO1 | HEK 293 | - | <7.5 µM
CCn1c(-c2ccccc2)c(C)c(=O)c2cc(N3CCOCC3)ccc21 | HELA-OHIO | MTT | >50 µg/mL
O=C(Nc1nc2ccc(C(F)(F)F)cc2s1)c1cnc(C(F)(F)F)s1 | CEM-GXR | flow cytometry | 12.1 µM
O=C(NCCCl)Oc1ccc(Cl)cc1C(=O)Nc1ccc(C(=O)c2ccccc2)cc1 | Mono Mac 6 | MTT | 37.8 µM
CS[C@@]12CC3=CC=C[C@H](O)[C@H]3N1C(=O)[C@@]13C[C@H]4C(=O)C[C@@H](S1)[C@H](O)[C@H]4N3C2=O | 293T | luminescence | >100 µM
CCOC(=O)CCCCCOc1cccc(CN(C(=O)c2ccc(-c3cccc(Br)c3)cc2)C(C)C)c1 | RAJI | - | >20 µM
Clc1ccc(-c2csc(-n3cccc3)n2)cc1 | Lung adenocarcinoma cells | MTT | 245 µM
C[C@H](Cc1ccc(OCCN2CCOCC2)c(OCCN2CCOCC2)c1)[C@@H](C)Cc1ccc(OCCN2CCOCC2)c(OCCN2CCOCC2)c1 | COS | - | 19.71 µM
O=C(O)c1cn(-c2ccc(Cn3cncn3)cc2)c2c(OC(F)F)c(N3CC=C(c4ccccc4)CC3)c(F)cc2c1=O | OM-10.1 | - | 0.3 µM
[Cl][Co][Cl] | Vero epithelial cells | - | 3410 µM
Cc1ccc(C)n1-c1nc(-c2ccc(Br)cc2)cs1 | Lung adenocarcinoma cells | MTT | 253 µM
CS[C@@]12CC3=CC=C[C@H](O)[C@H]3N1C(=O)[C@@]13C[C@@H]4[C@@H]([C@@H](O)[C@@H](C[C@@H]4O)S1)N3C2=O | 293T | luminescence | >100 µM
CCOC(=O)c1c(CS(=O)(=O)c2ccccc2)n(C)c2cc(-c3cccnc3)c(O)c(CN(C)C)c12 | Huh7.3 | ATP | 31 µM
COC(=O)c1ccc(OCc2cnc(CS(=O)c3nc4ccccc4[nH]3)c(C)c2)c(OC)c1 | HEK293T | MTT | 37.5 µM
O=C(Nc1ccc(Cl)cc1)N1CCCC12C1CC3CC(C1)CC2C3 | HEF | - | 150 µg/mL
COc1cnc(CS(=O)c2nc3ccc(C)cc3[nH]2)c(C)c1OC | HEK293T | MTT | 125 µM
Cc1nc(C(C)C)c2[nH]c(=S)[nH]c(=O)n12 | WI-38 | - | 200 µg/mL
CN[C@@H]1[C@H](O[C@@H]2OC[C@@H](O)[C@H](O)[C@H]2O)[C@@H](O)[C@H](O[C@H]2c3cc(C)c(C(=O)N[C@H](C)C(=O)O)c(O)c3-c3c(cc4c(c3O)C(=O)c3cc(OC)cc(O)c3C4=O)[C@@H]2O)O[C@@H]1C | HCT116 | - | >500 µg/mL
Nc1ccn(C2CO[C@H](CO)[C@H]2CO)c(=O)n1 | NC-37 | - | >100 µg/mL
Nc1nc2c(ncn2C=C2CC2(F)CO)c(=O)[nH]1 | DAUDI | - | >199 µM
Cc1ccc(C)n1-c1ccc(C(=O)NN2C(=O)c3c(Cl)c(Cl)c(Cl)c(Cl)c3C2=O)cc1 | Lung adenocarcinoma cells | MTT | 250 µM
C[C@H]1CC[C@@]2(ON=C3OCCC[C@@H]32)[C@H]2CN1C(=O)c1c(O)c(=O)c(C(=O)NCc3c(F)cc(F)cc3F)cn12 | MT-4 | luminescence | 50 µM

For reference, 11 entries again:

structure,cells,method,result
O=C(Oc1ccc(Br)cc1C(=O)Nc1ccc(Cl)c(Cl)c1)c1cnc(Cl)cn1,Mono Mac 6,MTT,5.7 µM
Cc1ccc(C)n1-c1ccc(C(=O)NN2C(=O)c3c(Br)c(Br)c(Br)c(Br)c3C2=O)cc1,Lung adenocarcinoma cells,MTT,251 µM
O=C(NCCCl)Oc1ccc(Br)cc1C(=O)Nc1ccc(C(=O)c2ccccc2)cc1,Mono Mac 6,MTT,24.9 µM
CCOC(=O)/C=C/[C@H](C[C@@H]1CCNC1=O)NC(=O)C1=Cc2cc(Cl)ccc2OC1,H1-HELA,-,>100 µM
Nc1nc(N)c2ncn(C3CO[C@H](CO)[C@H]3CO)c2n1,NC-37,-,79.7 µg/mL
C=CCCCC(=O)NCC(c1ccc2c(c1)OCO2)C1OCCO1,HEK 293,-,<7.5 µM
COc1ccc(-c2c(C)c(=O)c3cc(C(C)C)ccc3n2C)cc1,HELA-OHIO,MTT,5.8 µg/mL
CCOC(=O)c1c(CSc2ccccc2)n(C)c2cc(C#N)c(O)c(CN(N(C)C)N(C)C)c12,Huh7.3,ATP,271.4 µM
CS[C@@]12CC3=CC=C[C@H](O)[C@H]3N1C(=O)[C@@]13C[C@@H]4[C@@H]([C@@H](O)[C@@H](C[C@@H]4O)S1)N3C2=O,293T,luminescence,>100 µM
C/C(=N\NC(=O)c1ccc(Cl)cc1)c1cccc(/C(C)=N/NC(=O)c2ccc(Cl)cc2)n1,MCF-7,MTT,>100 µM
Nc1ncnc2c1ncn2/C=C1/CC1(CO)CO,MEF,-,>380 µM

CCn is the concentration with n% toxicity to the cells. Conditions beyond the fields shown may differ between rows. An empty or dashed field is not shown.